Test [1] has as its system S. aureus gene transcription (LAC, LACΔagr). As to the kind of experiment: Transcriptional analysis of the agr specificity of OHM (qPCR). To be noted: 5 μg/mL OHM, five hours, relative to 16S, values shown if ≥2-fold.
The subject of another test is alpha-hemolysin (Hla). As to the kind of experiment: Rabbit red blood cell lysis assay (Hla production). The settings on record: LAC supernatant, 5 μg/mL OHM.

Turning to `O=C1c2cc(O)cc(O)c2C(=O)c2c(O)cc(CO)cc21` [OHM, 1,3,8-trihydroxy-6-(hydroxymethyl)anthracene-9,10-dione], in test [1] (LAC), the “Fold change in gene expression (Vehicle/OHM treatment), NaMDR (SAUSA300_0335)” value was −3.23 fold; the “Fold change in gene expression (Vehicle/OHM treatment), mdrA (SAUSA300_2299)” value is recorded as less than 2 fold; the “Fold change in gene expression (Vehicle/OHM treatment), norA (SAUSA300_0680)” value is on record as less than 2 fold. Also, the “Fold change in gene expression (Vehicle/OHM treatment), NaMDR (SAUSA300_0335)” value in test [1] (Δagr) was −2.26 fold. In addition, the “production of Hla (red blood cell lysis, HA50)” value in the test with alpha-hemolysin (Hla) was “inhibited production of Hla”.

These data come from patent US20180280321A1, “COMPOSITIONS AND METHODS THAT INHIBIT QUORUM SENSING” (The Office of Innovation Commercialization, priority 2015, published 2018).
